{"source": "PubChem BioAssay AID1259414 (Drosophila RNAi Screening Center, 2018)", "assay": "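Host factors increasing or decreasing Wolbachia levels in cultured fly cells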 (primary screen)", "cells": "Drosophila JW18 cells infected with Wolbachia", "reagent": "long dsRNA against Drosophila genes, 0.25 µg dsRNA per well of a 384-well plate", "time to read-out": "5 days", "treatment": "cells persistently infected with Wolbachia before knock-down; no added drug", "measured": "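Imaged fluorescence in situ signal for Wolbachia 23S rRNA per DAPI-counted host cell, given as a robust z-score within each plate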", "scale": "Wolbachia per cell robust z: higher = more Wolbachia per host cell than the plate typical", "active means": "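Hit when robust z is 1.5 or more, or -1.5 or less, in at least two of three replicates; excludes dsRNAs with several or no targets, genes not expressed in JW18 and well A1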", "note": "In all, the deposit lists about 24,000 reagents; below is an unselected part of those with a known target gene and a result. Of all reagents, about 1,210 (5%) are marked active. 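Inactive calls also include excluded dsRNAs with several or no targets, genes unexpressed in JW18, and well A1, regardless of score.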 Unmarked entries are inactive."}
The first 2 entries, ahead of the listing:
{"target gene":"larp","amplicon":"DRSC14728","Wolbachia per cell robust z, rep 1":0.746,"Wolbachia per cell robust z, rep 2":0.844,"Wolbachia per cell robust z, rep 3":-0.0366}
{"target gene":"larp","amplicon":"DRSC16984","Wolbachia per cell robust z, rep 1":-3.64,"Wolbachia per cell robust z, rep 2":0.304,"Wolbachia per cell robust z, rep 3":-0.658}

The listing, from the start:
{"target gene":"larp","amplicon":"DRSC14728","Wolbachia per cell robust z, rep 1":0.746,"Wolbachia per cell robust z, rep 2":0.844,"Wolbachia per cell robust z, rep 3":-0.0366}
{"target gene":"larp","amplicon":"DRSC16984","Wolbachia per cell robust z, rep 1":-3.64,"Wolbachia per cell robust z, rep 2":0.304,"Wolbachia per cell robust z, rep 3":-0.658}
{"target gene":"larp","amplicon":"DRSC21856","Wolbachia per cell robust z, rep 1":0.0795,"Wolbachia per cell robust z, rep 2":0.463,"Wolbachia per cell robust z, rep 3":0.794}
{"target gene":"larp","amplicon":"DRSC24427","Wolbachia per cell robust z, rep 1":0.521,"Wolbachia per cell robust z, rep 2":-0.0342,"Wolbachia per cell robust z, rep 3":0.508}
{"target gene":"larp","amplicon":"DRSC28325","Wolbachia per cell robust z, rep 1":-1.24,"Wolbachia per cell robust z, rep 2":-0.239,"Wolbachia per cell robust z, rep 3":-0.249}
{"target gene":"CG30369","amplicon":"DRSC21996","Wolbachia per cell robust z, rep 1":0.89,"Wolbachia per cell robust z, rep 2":1.16,"Wolbachia per cell robust z, rep 3":-0.221}
{"target gene":"CG30369","amplicon":"DRSC29843","Wolbachia per cell robust z, rep 1":-2.4,"Wolbachia per cell robust z, rep 2":0.181,"Wolbachia per cell robust z, rep 3":0.92}
{"target gene":"CG10738","amplicon":"DRSC09792","Wolbachia per cell robust z, rep 1":0.507,"Wolbachia per cell robust z, rep 2":-0.0566,"Wolbachia per cell robust z, rep 3":-2.89}
{"target gene":"CG10738","amplicon":"DRSC24408","Wolbachia per cell robust z, rep 1":-1.19,"Wolbachia per cell robust z, rep 2":-0.793,"Wolbachia per cell robust z, rep 3":-0.139}
{"target gene":"CG44774","amplicon":"DRSC18342","Wolbachia per cell robust z, rep 1":"0.537 (active)","Wolbachia per cell robust z, rep 2":-6.98,"Wolbachia per cell robust z, rep 3":-4.93}
{"target gene":"CG44774","amplicon":"DRSC27595","Wolbachia per cell robust z, rep 1":-0.204,"Wolbachia per cell robust z, rep 2":-0.31,"Wolbachia per cell robust z, rep 3":0.245}
{"target gene":"drl","amplicon":"DRSC03523","Wolbachia per cell robust z, rep 1":0.827,"Wolbachia per cell robust z, rep 2":-0.317,"Wolbachia per cell robust z, rep 3":-0.899}
{"target gene":"drl","amplicon":"DRSC28564","Wolbachia per cell robust z, rep 1":-0.622,"Wolbachia per cell robust z, rep 2":0.122,"Wolbachia per cell robust z, rep 3":1.18}
{"target gene":"Lcp65Ad","amplicon":"DRSC11211","Wolbachia per cell robust z, rep 1":-6.44,"Wolbachia per cell robust z, rep 2":0.309,"Wolbachia per cell robust z, rep 3":0.0895}
{"target gene":"Lcp65Ad","amplicon":"DRSC24630","Wolbachia per cell robust z, rep 1":0.89,"Wolbachia per cell robust z, rep 2":0.191,"Wolbachia per cell robust z, rep 3":0.873}
{"target gene":"CG5746","amplicon":"DRSC15868","Wolbachia per cell robust z, rep 1":-0.429,"Wolbachia per cell robust z, rep 2":-4.05,"Wolbachia per cell robust z, rep 3":-0.47}
{"target gene":"CG5746","amplicon":"DRSC25452","Wolbachia per cell robust z, rep 1":-10.5,"Wolbachia per cell robust z, rep 2":-1.16,"Wolbachia per cell robust z, rep 3":-0.921}
{"target gene":"CG14545","amplicon":"DRSC14889","Wolbachia per cell robust z, rep 1":-3.63,"Wolbachia per cell robust z, rep 2":-1.4,"Wolbachia per cell robust z, rep 3":0.481}
{"target gene":"CG14545","amplicon":"DRSC27728","Wolbachia per cell robust z, rep 1":0.366,"Wolbachia per cell robust z, rep 2":1.15,"Wolbachia per cell robust z, rep 3":0.578}
{"target gene":"lectin-21Ca","amplicon":"DRSC00541","Wolbachia per cell robust z, rep 1":-0.448,"Wolbachia per cell robust z, rep 2":-7.67,"Wolbachia per cell robust z, rep 3":-1.72}
{"target gene":"Acp65Aa","amplicon":"DRSC09663","Wolbachia per cell robust z, rep 1":-0.696,"Wolbachia per cell robust z, rep 2":0.0662,"Wolbachia per cell robust z, rep 3":0.523}
{"target gene":"Acp65Aa","amplicon":"DRSC26708","Wolbachia per cell robust z, rep 1":1.16,"Wolbachia per cell robust z, rep 2":0.467,"Wolbachia per cell robust z, rep 3":0.484}
{"target gene":"CG8675","amplicon":"DRSC20117","Wolbachia per cell robust z, rep 1":-0.0775,"Wolbachia per cell robust z, rep 2":1.12,"Wolbachia per cell robust z, rep 3":0.0493}
{"target gene":"CG8675","amplicon":"DRSC27658","Wolbachia per cell robust z, rep 1":"-1.43 (active)","Wolbachia per cell robust z, rep 2":-3.52,"Wolbachia per cell robust z, rep 3":-2.64}
